From US9625458B2, “Biosensor” (priority 2002, dated 2017) come the findings set out here.

This data set can be described thus: Fluorescence emission spectra without and with saturating ligand (wavelength shift, ΔIstd, ΔRmax). Particulars: for λmax,apo (nm) / λmax,sat (nm): emission maximum; for λmax,apo (nm): absence of ligand; for λmax,sat (nm): saturating ligand (ligand column); for ΔIstd: standard intensity change; for ΔIstd / ΔRmax: unbound vs ligand-saturated; for ΔRmax: standard ratiometric change. In outline:
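Emission spectra of bPBP–fluorophore conjugates (50–1000 nM protein, 25 °C, stirred) recorded without and with saturating ligand, using fluorophore-specific excitation. Wavelength shift, ΔIstd (intensity change at the mid-point wavelength) and ΔRmax (maximal ratiometric change over enumerated band pairs, 2 nm steps, 10 nm width) derived.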

B1: dipeptide BP R141C Fluorescein (conjugate, UniProt P23847 29-535, looked up, variant R141C)
Dipeptide-binding protein: KTLVYCSEGSPEGFNPQLFTSGTTYDASSVPLYNRLVEFKIGTTEVIPGLAEKWEVSEDGKTYTFHLRKGVKWHDNKEFKPTRELNADDVVFSFDRQKNAQNPYHKVSGGSYEYFEGMGLPELISEVKKVDDNTVQFVLTCPEAPFLADLAMDFASILSKEYADAMMKAGTPEKLDLNPIGTGPFQLQQYQKDSRIRYKAFDGYWGTKPQIDTLVFSITPDASVRYAKLQKNECQVMPYPNPADIARMKQDKSINLMEMPGLNVGYLSYNVQKKPLDDVKVRQALTYAVNKDAIIKAVYQGAGVSAKNLIPPTMWGYNDDVQDYTYDPEKAKALLKEAGLEKGFSIDLWAMPVQRPYNPNARRMAEMIQADWAKVGVQAKIVTYEWGEYLKRAKDGEHQTVMMGWTGDNGDPDNFFATLFSCAASEQGSNYSKWCYKPFEDLIQPARATDDHNKRVELYKQAQVVMHDQAPALIIAHSTVFEPVRKEVKGYVVDPLGKHHFENVSIE
modifications: fluorescein conjugate
For the molecule B1, the “λmax,apo (nm)” value came to 522, the “λmax,sat (nm)” value is 522, the ΔIstd is reported as 0.12 and the ΔRmax was found to be 0.66.

B2: dipeptide BP R141C NBD (conjugate, UniProt P23847 29-535, looked up, variant R141C)
Dipeptide-binding protein: KTLVYCSEGSPEGFNPQLFTSGTTYDASSVPLYNRLVEFKIGTTEVIPGLAEKWEVSEDGKTYTFHLRKGVKWHDNKEFKPTRELNADDVVFSFDRQKNAQNPYHKVSGGSYEYFEGMGLPELISEVKKVDDNTVQFVLTCPEAPFLADLAMDFASILSKEYADAMMKAGTPEKLDLNPIGTGPFQLQQYQKDSRIRYKAFDGYWGTKPQIDTLVFSITPDASVRYAKLQKNECQVMPYPNPADIARMKQDKSINLMEMPGLNVGYLSYNVQKKPLDDVKVRQALTYAVNKDAIIKAVYQGAGVSAKNLIPPTMWGYNDDVQDYTYDPEKAKALLKEAGLEKGFSIDLWAMPVQRPYNPNARRMAEMIQADWAKVGVQAKIVTYEWGEYLKRAKDGEHQTVMMGWTGDNGDPDNFFATLFSCAASEQGSNYSKWCYKPFEDLIQPARATDDHNKRVELYKQAQVVMHDQAPALIIAHSTVFEPVRKEVKGYVVDPLGKHHFENVSIE
modifications: NBD label
With B2, the “λmax,apo (nm)” value is 542, the “λmax,sat (nm)” value was 544, the ΔIstd is listed as 0.00 and the ΔRmax worked out at 0.13.

B3: dipeptide BP S111C JPW4039 (conjugate, UniProt P23847 29-535, looked up, variant S111C)
Dipeptide-binding protein: KTLVYCSEGSPEGFNPQLFTSGTTYDASSVPLYNRLVEFKIGTTEVIPGLAEKWEVSEDGKTYTFHLRKGVKWHDNKEFKPTRELNADDVVFSFDRQKNAQNPYHKVSGGCYEYFEGMGLPELISEVKKVDDNTVQFVLTRPEAPFLADLAMDFASILSKEYADAMMKAGTPEKLDLNPIGTGPFQLQQYQKDSRIRYKAFDGYWGTKPQIDTLVFSITPDASVRYAKLQKNECQVMPYPNPADIARMKQDKSINLMEMPGLNVGYLSYNVQKKPLDDVKVRQALTYAVNKDAIIKAVYQGAGVSAKNLIPPTMWGYNDDVQDYTYDPEKAKALLKEAGLEKGFSIDLWAMPVQRPYNPNARRMAEMIQADWAKVGVQAKIVTYEWGEYLKRAKDGEHQTVMMGWTGDNGDPDNFFATLFSCAASEQGSNYSKWCYKPFEDLIQPARATDDHNKRVELYKQAQVVMHDQAPALIIAHSTVFEPVRKEVKGYVVDPLGKHHFENVSIE
modifications: JPW4039 label
For the molecule B3, the “λmax,apo (nm)” value worked out at 597, the “λmax,sat (nm)” value is given as 598, the ΔIstd is on record as 0.24 and the ΔRmax was found to be 0.33.
